Assays:
[1] = test system: Staphyloccocus aureus (ATCC 6538); test: Minimum inhibitory concentration, broth dilution (NCCLS M7-A6), S. aureus; type: cell-based, Staphylococcus aureus; conditions: as printed in footnote d
Protocol: Antimicrobial activity tests were performed in a quantitative way by determining the minimum inhibitory concentration (MIC) by the standard method for in vitro anti-bacterial susceptibility testing proposed by the National Committee for Clinical Laboratory Standards [NCCLS M7-A6] [56]. Sthaphyloccocus aureus [ATCC6538] and Pseudomonas aeruginosa [ATCC27853] stored in Müller–Hilton broth were sub-cultured for testing in the same medium and incubated for 24 h, respectively, at 37 °C. The bacterial cells of the two strains were suspended in Müller-Hilton broth to produce inocula of 10^8 CFU mL^–1, determined by a spectrophotometric method. Serial dilutions of the compounds, previously dissolved in DMSO, were prepared in 10 test tubes with Müller–Hilton broth to final concentrations from 100 μg mL^–1 to 0.20 μg mL^–1 for P. aeruginosa and S. aureus. An old inoculum of each strain was added to the tubes to obtain final concentrations of 10^5 CFU. […] Tests using tetracycline as positive control and DMSO as negative control were carried out in parallel. All tests were performed in triplicate with full agreement between the results.

[2] = test system: Pseudomonas aeruginosa (ATCC 27853); test: Minimum inhibitory concentration, broth dilution (NCCLS M7-A6), P. aeruginosa; type: cell-based; conditions: as printed in footnote c

Compound | d SI (selective index): ratio between MIC in murine macrophages and MIC in Staphylococcus aereus [1] | c SI (selective index): ratio between CC50 in murine macrophages and MIC in Pseudomonas aureginosa [2]
CC(=O)Oc1ccccc1C(=O)[O][Sb]([O]C(=O)c1ccccc1OC(C)=O)([c]1ccccc1)([c]1ccccc1)[c]1ccccc1 [Complex 1, Bis-(acetylsalicylato)triphenylantimony(V)] | <1 | <1
CC(=O)Oc1ccccc1C(=O)[O][Bi]([O]C(=O)c1ccccc1OC(C)=O)([c]1ccccc1)([c]1ccccc1)[c]1ccccc1 [Complex 3, Bis-(acetylsalicylato)triphenylbismuth(V)] | <1 | 1.6
CC(=O)Oc1cccc(C(=O)[O][Bi]([O]C(=O)c2cccc(OC(C)=O)c2)([c]2ccccc2)([c]2ccccc2)[c]2ccccc2)c1 [Complex 4, Bis-(3-acetoxybenzoato)triphenylbismuth(V)] | <1 | 1.6
[Cl][Sb]([Cl])([c]1ccccc1)([c]1ccccc1)[c]1ccccc1 [Complex M1, triphenylantimony(V) dichloride] | <1 | <1
O=C([O-])[O-].c1cc[c]([Bi+2]([c]2ccccc2)[c]2ccccc2)cc1 [Complex M2, triphenylbismuth carbonate] | <1 | <1
Bis-(3-acetoxybenzoato)triphenylantimony(V) [Complex 2] | <1 | <1
